Laboratory results as given in publication PMC9602734, “Research into the Bioengineering of a Novel α-Conotoxin from the Milked Venom of Conus obscurus” (2022).

By UniProt entry, the sequences of proteins in these tests, tags left out. Residues count along the entry.
UniProt P17787, 26-502 limits assumed: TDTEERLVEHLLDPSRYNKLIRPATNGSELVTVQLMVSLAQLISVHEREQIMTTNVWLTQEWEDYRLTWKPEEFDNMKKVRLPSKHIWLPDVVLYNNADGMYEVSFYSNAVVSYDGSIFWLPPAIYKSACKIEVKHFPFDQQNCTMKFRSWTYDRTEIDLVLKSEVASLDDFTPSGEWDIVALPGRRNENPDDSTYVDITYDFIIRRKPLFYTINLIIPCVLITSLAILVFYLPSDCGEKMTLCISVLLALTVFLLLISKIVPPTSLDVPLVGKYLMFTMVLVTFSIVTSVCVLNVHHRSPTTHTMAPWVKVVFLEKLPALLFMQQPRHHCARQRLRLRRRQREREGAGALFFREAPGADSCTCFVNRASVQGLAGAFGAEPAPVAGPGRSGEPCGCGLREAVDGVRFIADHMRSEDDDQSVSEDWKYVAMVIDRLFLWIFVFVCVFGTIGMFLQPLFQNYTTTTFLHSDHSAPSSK
UniProt P32297, 32-505 limits assumed: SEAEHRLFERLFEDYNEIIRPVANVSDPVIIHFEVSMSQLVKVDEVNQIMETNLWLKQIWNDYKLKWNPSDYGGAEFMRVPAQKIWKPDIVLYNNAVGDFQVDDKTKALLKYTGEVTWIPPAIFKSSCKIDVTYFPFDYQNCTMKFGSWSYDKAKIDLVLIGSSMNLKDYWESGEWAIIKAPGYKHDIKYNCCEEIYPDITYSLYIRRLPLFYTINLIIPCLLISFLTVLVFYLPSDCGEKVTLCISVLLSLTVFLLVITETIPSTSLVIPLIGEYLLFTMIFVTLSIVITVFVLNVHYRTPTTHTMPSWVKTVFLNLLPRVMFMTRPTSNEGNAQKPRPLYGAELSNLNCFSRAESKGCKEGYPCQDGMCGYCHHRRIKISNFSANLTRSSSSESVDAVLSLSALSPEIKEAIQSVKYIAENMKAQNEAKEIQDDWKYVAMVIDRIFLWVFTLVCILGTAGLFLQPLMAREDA
UniProt P43681, 29-627 limits assumed: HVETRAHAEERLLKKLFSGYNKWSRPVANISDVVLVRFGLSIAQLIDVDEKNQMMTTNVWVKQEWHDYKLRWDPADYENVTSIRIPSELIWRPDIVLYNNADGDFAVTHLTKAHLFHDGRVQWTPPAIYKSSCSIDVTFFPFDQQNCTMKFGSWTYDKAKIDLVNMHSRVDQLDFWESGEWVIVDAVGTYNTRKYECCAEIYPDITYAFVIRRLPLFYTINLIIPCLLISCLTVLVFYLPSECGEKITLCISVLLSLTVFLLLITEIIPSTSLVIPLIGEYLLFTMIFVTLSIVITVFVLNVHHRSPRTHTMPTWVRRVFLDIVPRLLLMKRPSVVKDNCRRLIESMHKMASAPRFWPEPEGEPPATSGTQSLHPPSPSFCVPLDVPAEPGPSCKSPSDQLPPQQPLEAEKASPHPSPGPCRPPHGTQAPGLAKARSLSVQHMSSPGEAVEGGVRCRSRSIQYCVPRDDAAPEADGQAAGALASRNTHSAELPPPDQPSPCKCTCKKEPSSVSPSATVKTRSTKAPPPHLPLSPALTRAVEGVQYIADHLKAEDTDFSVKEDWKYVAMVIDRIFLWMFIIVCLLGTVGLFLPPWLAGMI
UniProt P30926, 22-498 limits assumed: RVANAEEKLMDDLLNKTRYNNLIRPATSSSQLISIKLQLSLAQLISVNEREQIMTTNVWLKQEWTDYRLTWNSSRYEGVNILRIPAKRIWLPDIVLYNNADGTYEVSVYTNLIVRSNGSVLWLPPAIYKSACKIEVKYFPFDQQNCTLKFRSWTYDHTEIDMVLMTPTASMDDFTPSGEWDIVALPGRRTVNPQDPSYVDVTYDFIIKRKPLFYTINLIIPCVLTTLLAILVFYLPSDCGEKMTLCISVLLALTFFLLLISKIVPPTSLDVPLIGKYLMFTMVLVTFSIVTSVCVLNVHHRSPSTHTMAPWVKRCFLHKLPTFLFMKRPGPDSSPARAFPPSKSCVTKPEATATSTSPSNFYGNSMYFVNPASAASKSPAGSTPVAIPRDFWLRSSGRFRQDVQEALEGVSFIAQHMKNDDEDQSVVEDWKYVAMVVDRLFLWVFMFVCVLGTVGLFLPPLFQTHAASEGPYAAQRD
UniProt P36544, 23-502 limits assumed: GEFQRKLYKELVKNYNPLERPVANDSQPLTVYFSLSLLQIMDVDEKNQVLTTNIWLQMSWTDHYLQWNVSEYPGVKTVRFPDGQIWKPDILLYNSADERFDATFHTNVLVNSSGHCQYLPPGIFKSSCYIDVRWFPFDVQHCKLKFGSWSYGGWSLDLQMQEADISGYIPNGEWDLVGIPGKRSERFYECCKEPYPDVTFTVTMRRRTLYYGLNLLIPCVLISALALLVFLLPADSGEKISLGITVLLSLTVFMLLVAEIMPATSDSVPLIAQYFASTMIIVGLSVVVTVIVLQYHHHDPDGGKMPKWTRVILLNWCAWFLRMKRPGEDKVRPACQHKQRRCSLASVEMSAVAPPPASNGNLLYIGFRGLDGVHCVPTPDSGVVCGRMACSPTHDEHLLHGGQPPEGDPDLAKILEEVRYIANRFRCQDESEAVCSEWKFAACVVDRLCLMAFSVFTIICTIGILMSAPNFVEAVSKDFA
UniProt Q9GZZ6, 25-450 limits assumed: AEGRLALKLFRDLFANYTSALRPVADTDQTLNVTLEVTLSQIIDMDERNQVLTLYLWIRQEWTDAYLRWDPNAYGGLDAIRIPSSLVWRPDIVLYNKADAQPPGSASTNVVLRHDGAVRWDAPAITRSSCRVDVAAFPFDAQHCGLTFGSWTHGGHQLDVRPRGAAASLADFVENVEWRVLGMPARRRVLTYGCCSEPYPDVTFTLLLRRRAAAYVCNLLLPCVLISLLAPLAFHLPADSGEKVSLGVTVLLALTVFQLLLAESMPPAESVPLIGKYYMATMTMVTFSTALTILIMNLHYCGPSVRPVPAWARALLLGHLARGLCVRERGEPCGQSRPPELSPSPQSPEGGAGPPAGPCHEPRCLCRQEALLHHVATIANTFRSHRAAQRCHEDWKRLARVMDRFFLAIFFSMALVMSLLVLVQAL
UniProt Q9UGM1, 26-479 limits assumed: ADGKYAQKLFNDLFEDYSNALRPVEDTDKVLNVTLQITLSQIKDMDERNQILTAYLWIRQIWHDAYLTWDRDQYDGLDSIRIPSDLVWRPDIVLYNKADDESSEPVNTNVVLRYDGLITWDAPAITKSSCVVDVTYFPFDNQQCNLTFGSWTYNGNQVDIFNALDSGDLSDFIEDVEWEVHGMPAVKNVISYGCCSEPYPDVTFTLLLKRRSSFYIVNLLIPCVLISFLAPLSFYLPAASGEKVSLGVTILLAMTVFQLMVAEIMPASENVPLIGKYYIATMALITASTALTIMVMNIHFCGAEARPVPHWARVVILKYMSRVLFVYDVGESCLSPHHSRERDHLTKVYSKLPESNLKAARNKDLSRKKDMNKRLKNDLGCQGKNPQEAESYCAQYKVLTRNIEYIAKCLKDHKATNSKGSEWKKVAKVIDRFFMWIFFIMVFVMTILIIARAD

How the values were obtained:
Assay in all cases: Two-electrode voltage clamp, neuronal nAChR in Xenopus laevis oocytes
[1] = biological target: human neuronal nAChR α3β2 (Homo sapiens, UniProt P17787+P32297); conditions: at >100μM, TEVC
[2] = biological target: human neuronal nAChR α4β2 (Homo sapiens, UniProt P17787+P43681); conditions: at >100μM, TEVC, ACh 200 µM
[3] = biological target: human neuronal nAChR α4β4 (Homo sapiens, UniProt P30926+P43681); conditions: at >100μM, TEVC, ACh 200 µM
human neuronal nAChR α7 = human neuronal nAChR α7 (Homo sapiens, UniProt P36544); conditions: at >100μM, TEVC, ACh 100 µM
[4] = biological target: human neuronal nAChR α9α10 (Homo sapiens, UniProt Q9GZZ6+Q9UGM1); conditions: at >100μM, TEVC, ACh 500 µM

C[C@@H]1NC(=O)[C@@H]2CCCN2C(=O)[C@H](Cc2c[nH]cn2)NC(=O)[C@@H]2CSSC[C@@H](C(N)=O)NC(=O)[C@H](CO)NC(=O)[C@H](Cc3ccccc3)NC(=O)[C@H](CC(N)=O)NC(=O)[C@@H]3CCCN3C(=O)CNC(=O)[C@H](CSSC[C@H](NC(=O)[C@@H](N)Cc3ccc(O)cc3)C(=O)N2)NC1=O
no inhibition: inhibition of α3β2 [1] | inhibition of α4β2 [2] | inhibition of α4β4 [3] | inhibition of α7 (human neuronal nAChR α7) | inhibition of α9α10 [4]
